These compounds were tested on HeLa cells (assay: Cytotoxicity against mammalian cells (MTS assay)). Settings: ratio of HeLa CC50 to S. aureus MIC.
Type: cell-based
Procedure: The cytotoxicity concentration of antibacterial compounds that produces half maximal decrease in viability (CC50) against mammalian cells (HeLa, ATCC CCL-2.2) was determined as described. The effect of compounds on HeLa cell viability was assessed in triplicate by measuring the mitochondrial activity using MTS assays according to the manufacturer’s instructions (Cell Titer 96 proliferation assay, Promega). The cells were incubated for 72 hours in RPMI1640 medium containing the compounds at final concentrations ranging from 64 to 0.125 μg/ml. CC50 was determined using a standard curve of serially diluted untreated cells in each experiment.
For C(=C\c1cc(-c2ccccc2)cc(-c2ccccc2)[o+]1)/c1cc2c3c(c1)CCCN3CCC2.F[B-](F)(F)F [6jc-58], the “CC50%/MIC (based on S. aureus)” value was 0.56. With CCc1ccc(-c2cc(/C=C/c3cn(C)c4ccccc34)[o+]c(-c3ccc(CC)cc3)c2)cc1.F[B-](F)(F)F [6jc66-2] the “CC50%/MIC (based on S. aureus)” value was 0.355. Cn1cc(/C=C/c2cc(-c3ccc(C(C)(C)C)cc3)cc(-c3ccc(C(C)(C)C)cc3)[o+]2)c2ccccc21.F[B-](F)(F)F [6jc66-3] was tested, and the “CC50%/MIC (based on S. aureus)” value was 0.71. With CN(C)c1ccc(/C=C/c2cc(-c3ccc(Br)cc3)cc(-c3ccc(Br)cc3)[o+]2)cc1 [6jc48-1] the “CC50%/MIC (based on S. aureus)” value was 3.125. Cc1ccc(-c2cc(/C=C/c3ccc(N(C)C)cc3)[o+]c(-c3ccc(C)c(C)c3)c2)cc1C.F[B-](F)(F)F [6jc-59-1] was tested, and the “CC50%/MIC (based on S. aureus)” value was 0.39. In the case of CCc1ccc(-c2cc(/C=C/c3c[nH]c4ccccc34)[o+]c(-c3ccc(CC)cc3)c2)cc1.F[B-](F)(F)F [6jc64-3], the “CC50%/MIC (based on S. aureus)” value is reported as 0.581. In the case of CCc1ccc(-c2cc(/C=C/c3cc4c5c(c3)CCCN5CCC4)[o+]c(-c3ccc(CC)cc3)c2)cc1.F[B-](F)(F)F [6jc-69-1], the “CC50%/MIC (based on S. aureus)” value is reported as 0.39. In the case of CN(C)c1ccc(/C=C/c2cc(-c3ccc(Cl)cc3)cc(-c3ccc(Cl)cc3)[o+]2)cc1.F[B-](F)(F)F [6jc41-1], the “CC50%/MIC (based on S. aureus)” value is reported as >2. With Cc1ccc(-c2cc(/C=C/c3c[nH]c4ccccc34)[o+]c(-c3ccc(C)c(C)c3)c2)cc1C.F[B-](F)(F)F [6jc-59-3] the “CC50%/MIC (based on S. aureus)” value was 0.3375. With CN(C)c1ccc(/C=C/c2cc(-c3ccc(C(C)(C)C)cc3)cc(-c3ccc(C(C)(C)C)cc3)[o+]2)cc1.F[B-](F)(F)F [6jc-60-1] the “CC50%/MIC (based on S. aureus)” value was 0.097. In the case of Cc1ccc(-c2cc(/C=C/C=C/c3ccc(N(C)C)cc3)[o+]c(-c3ccc(C)cc3)c2)cc1.F[B-](F)(F)F [6jc51-2], the “CC50%/MIC (based on S. aureus)” value is reported as “<.39”. For Cn1cc(/C=C/c2cc(-c3ccccc3)cc(-c3ccccc3)[o+]2)c2ccccc21.F[B-](F)(F)F [6jc66-1], the “CC50%/MIC (based on S. aureus)” value was 0.48. In the case of Cc1ccc(-c2cc(/C=C/c3cc4c5c(c3)CCCN5CCC4)[o+]c(-c3ccc(C)c(C)c3)c2)cc1C.F[B-](F)(F)F [6jc-69-3], the “CC50%/MIC (based on S. aureus)” value is reported as 0.195. Cc1ccc(-c2cc(/C=C/c3cn(C)c4ccccc34)[o+]c(-c3ccc(C)cc3)c2)cc1.F[B-](F)(F)F [6jc65-2] was tested, and the “CC50%/MIC (based on S. aureus)” value was 0.47. For Cc1ccc(-c2cc(/C=C/c3c[nH]c4ccccc34)[o+]c(-c3ccc(C)cc3)c2)cc1.F[B-](F)(F)F [6jc-53-2], the “CC50%/MIC (based on S. aureus)” value was 0.56. Brc1ccc(-c2cc(/C=C/c3cc4c5c(c3)CCCN5CCC4)[o+]c(-c3ccc(Br)cc3)c2)cc1.F[B-](F)(F)F [6jc-69-5] was tested, and the “CC50%/MIC (based on S. aureus)” value was 0.06. With CN1/C(=C/C=C/c2cc(-c3ccccc3)cc(-c3ccccc3)[o+]2)C(C)(C)c2ccccc21 [BAS-00127538, (1-Methyl-2,4-diphenyl-6-((1E,3E)-3-(1,3,3-trimethylindolin-2-ylidene)prop-1-en-1-yl)pyryl-1-ium) tetrafluoroborate, reference compound] the “CC50%/MIC (based on S. aureus)” value was 1.12. With Cc1cc(/C=C/c2ccc(N(C)C)cc2)cc(C)[o+]1.F[B-](F)(F)F [6jc37] the “CC50%/MIC (based on S. aureus)” value was 1.185. For Cc1ccc(-c2cc(/C=C/c3cn(C)c4ccccc34)[o+]c(-c3ccc(C)c(C)c3)c2)cc1C.F[B-](F)(F)F [6jc66-4], the “CC50%/MIC (based on S. aureus)” value was 0.46. In the case of CN(C)c1ccc(/C=C/c2cc(-c3ccccc3)cc(-c3ccccc3)[o+]2)cc1.F[B-](F)(F)F [6jc39], the “CC50%/MIC (based on S. aureus)” value is reported as 0.655. For CCc1ccc(-c2cc(/C=C/C=C/c3ccc(N(C)C)cc3)[o+]c(-c3ccc(CC)cc3)c2)cc1.F[B-](F)(F)F [6jc64-2], the “CC50%/MIC (based on S. aureus)” value was 0.097. In the case of CCc1ccc(-c2cc(/C=C/c3ccc(N(C)C)cc3)[o+]c(-c3ccc(CC)cc3)c2)cc1.F[B-](F)(F)F [6jc64-1], the “CC50%/MIC (based on S. aureus)” value is reported as 0.195. In the case of CN(C)c1ccc(/C=C/C=C/c2cc(-c3ccc(Br)cc3)cc(-c3ccc(Br)cc3)[o+]2)cc1.F[B-](F)(F)F [6jc48-2], the “CC50%/MIC (based on S. aureus)” value is reported as <0.945. With Cc1ccc(-c2cc(/C=C/c3cc4c5c(c3)CCCN5CCC4)[o+]c(-c3ccc(C)cc3)c2)cc1.F[B-](F)(F)F [6jc65-1] the “CC50%/MIC (based on S. aureus)” value was 0.276. In the case of Clc1ccc(-c2cc(/C=C/c3cc4c5c(c3)CCCN5CCC4)[o+]c(-c3ccc(Cl)cc3)c2)cc1.F[B-](F)(F)F [6jc-69-4], the “CC50%/MIC (based on S. aureus)” value is reported as 0.38. With CN(C)c1ccc(/C=C/C=C/c2cc(-c3ccccc3)cc(-c3ccccc3)[o+]2)cc1.F[B-](F)(F)F [6jc43-1] the “CC50%/MIC (based on S. aureus)” value was 0.2325. Cc1ccc(-c2cc(/C=C/c3ccc(N(C)C)cc3)[o+]c(-c3ccc(C)cc3)c2)cc1.F[B-](F)(F)F [6jc51-1] was tested, and the “CC50%/MIC (based on S. aureus)” value was “<.78125”. With C(=C\c1c[nH]c2ccccc12)/c1cc(-c2ccccc2)cc(-c2ccccc2)[o+]1.F[B-](F)(F)F [Jc-49-1] the “CC50%/MIC (based on S. aureus)” value was 0.275.

Source: PMC5077133, “Towards Development of Small Molecule Lipid II Inhibitors as Novel Antibiotics” (PLoS ONE, 2016)
